Results deposited as PubChem BioAssay AID504761 (Drosophila RNAi Screening Center, 2011).
In all, the deposit lists about 22,000 reagents; this is an unselected part of those that have a named target and a result. In the full data, 116 (0.52%) got an active call. 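Calls depend on retest data that are not deposited; infection was ranked per plate without normalising between plates; the unit of the infection score is not given.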 Raw values are not corrected between plates. Unmarked entries are inactive. Not all columns of the deposit are shown. Not given: the amount of reagent, the time to read-out.

Test: 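Genome-wide fly cell screen for genes dengue virus requires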 (primary screen)
Cells: D.Mel-2 cells from Drosophila
Reagent: long dsRNA against Drosophila genes
Treatment: infection with dengue virus type 2; dose and infection time not stated
Read-out: 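Cells stained for dengue envelope protein and imaged; percent of infected cells per well on duplicate plates, ranked by infection, with stained nuclei counted for cell number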
Direction: infection score: higher = more virus-infected cells; cell count: higher = more cells in the well
Call rule: 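Low infection ranks in the two replicates (chance level up to 0.065) followed by a retest with a 1.5-fold or larger significant decrease, p below 0.05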
Meaning of the calls: active = confirmed: knock-down lowers infection; inactive = not picked or not confirmed

infection score, replicate 1	infection score, replicate 2	cell count, replicate 1	gene knocked down	amplicon
3.83	2.17	6786	CG8560	DRSC10994
7.88	3.7	6164	CG8560	DRSC23854
46.1	34.5	5586	RpS16	DRSC04442
26.1	16.3	3095	RpS16	DRSC29812
7.8	21	6220	Spn55B	DRSC07694
6.56	3.02	6856	Spn55B	DRSC21862
11.1	8.7	5354	Spn55B	DRSC27961
8.74	2.82	6636	Cisd2	DRSC14904
9.62	1.01	6539	slow	DRSC08589
2.33	1.96	6236	slow	DRSC08590
12	1.85	5434	slow	DRSC26083
1.63	1.93	6502	CG8945	DRSC20129
5.73	10.2	6894	CG32444	DRSC11677
6.03	21.7	6664	CG10979	DRSC12153
1.6	3.95	6453	dy	DRSC20325
3.51	3.91	6693	dy	DRSC25539
20.5	12.1	6292	bsk	DRSC03499
3.13	1.8	6681	Fim	DRSC20243
1.39	4.38	6540	Fum4	DRSC22577
1.78	3.26	6529	Fum4	DRSC24772
14.5	12.9	5275	JhI-26	DRSC06851
4.34	1.82	6865	JhI-26	DRSC27424
3.83	6.2	6580	Ir92a	DRSC15111
8.79	5.56	6644	CG14969	DRSC08428
6.43	7.21	6745	Pif2	DRSC12525
4.56		5879	Pif2	DRSC26251
2.44	4.49	6638	CG6980	DRSC16162
23.4	1.41	5956	CG6980	DRSC29355
1.3	2.29	6514	Tim8	DRSC20291
3.67	6.99	871	CR42545	DRSC03709
1.12	2.03	6052	Nnf1a	DRSC06394
5.45	2.1	5486	Ahcy	DRSC19329
18.4	5.56	5925	Ahcy	DRSC27304
5.43	5.96	6005	CG3817	DRSC15515
9.14	10	6973	CG3817	DRSC27548
15.7	15.8	5805	CG9270	DRSC03182
5	12.6	6418	Patj	DRSC08712
25.5	16.3	4993	Patj	DRSC28714
16.9	9.31	5501	mago	DRSC04703

Part of the list above, set out differently.
Cisd2 [DRSC14904]
- infection score, replicate 1: 8.74
- infection score, replicate 2: 2.82
- cell count, replicate 1: 6636

slow [DRSC08589]
- infection score, replicate 1: 9.62
- infection score, replicate 2: 1.01
- cell count, replicate 1: 6539

slow [DRSC08590]
- infection score, replicate 1: 2.33
- infection score, replicate 2: 1.96
- cell count, replicate 1: 6236

slow [DRSC26083]
- infection score, replicate 1: 12
- infection score, replicate 2: 1.85
- cell count, replicate 1: 5434

CG8945 [DRSC20129]
- infection score, replicate 1: 1.63
- infection score, replicate 2: 1.93
- cell count, replicate 1: 6502

CG32444 [DRSC11677]
- infection score, replicate 1: 5.73
- infection score, replicate 2: 10.2
- cell count, replicate 1: 6894
